Results of unrelated studies side by side (data: NIAID ChemDB).

Shared fields: tests in culture; agent: Herpes simplex virus 1; endpoint: MIC

Rows are shuffled and stem from different studies. An empty or dashed field is not shown. a–b is a range or a potency band.

SMILES,strain or isolate,result
Nc1nc2c(ncn2CCC(O)CO)c(=O)[nH]1,,4 µM
Nc1ccn(C[C@@H](CO)OCP(=O)(O)O)c(=O)n1,,4 µg/mL
O=c1[nH]c(=O)n([C@H]2C[C@H](O)[C@@H](CO)O2)cc1I,,3.2 µg/mL
Nc1nccc2c1ncn2[C@@H]1C[C@H](CO)[C@@H](O)[C@H]1O,KOS,>400 µg/mL
CCn1nc(CC(=O)N/N=C/c2ccco2)nc1C,TK (KOS ACV),>400 µg/mL
CCc1cn([C@H]2C[C@H](O)[C@@H](CO)O2)c(=O)[nH]c1=O,VR-3,3.2 µg/mL
O=P1(O)OCC2O[C@@H](n3cnc4c(NO)ncnc43)[C@H](O)C2O1,HF,1 µg/mL
Cc1nc(Cc2n[nH]c(=S)n2-c2ccccc2)nn1C,TK (KOS ACV),80 µg/mL
CCc1cn([C@@H]2O[C@H](CO)[C@@H](O)[C@@H]2F)c(=O)[nH]c1=O,,0.024 µM
N=c1c2ncn([C@@H]3O[C@H](COP(=O)(O)O)[C@@H](O)[C@@H]3O)c2ncn1O,,1–10 µg/mL
COc1ccc(-n2c(Cc3nc4n(n3)CCCC4)n[nH]c2=S)cc1,KOS,80 µg/mL
N[C@H]1[C@H](O)[C@H](n2cc(/C=C/Br)c(=O)[nH]c2=O)O[C@@H]1CO,,0.3 µM
CCn1nc(-c2ccc(Cn3ccc4ccccc43)cc2)nc1C,KOS,80 µg/mL
Nc1ncnc2c1ncn2C[C@@H](CO)OCP(=O)(O)O,,2 µg/mL
O=c1[nH]c(=O)n([C@H]2C[C@H](O)[C@@H](CO)O2)cc1I,FRAN,2.2 µg/mL
O=c1[nH]c(=O)n([C@@H]2O[C@H](CO)[C@@H](O)[C@@H]2O)cc1/C=C/Cl,,0.1 µg/mL
Cc1cn([C@@H]2O[C@H](CO)[C@@H](O)[C@@H]2F)c(=O)[nH]c1=O,,0.013 µM
Nc1ncnc2c1ncn2[C@@H]1C[C@H](CO)[C@@H](O)[C@@H]1O,WT-34,10 µg/mL
Nc1ncnc2c1ncn2[C@@H]1CC[C@@H](O)[C@H]1O,KOS,>400 µg/mL
CCn1nc(CC(=O)NN=C(C)C)nc1C,TK (KOS ACV),>400 µg/mL
O=c1[nH]c(=O)n([C@@H]2O[C@H](CO)[C@@H](O)[C@@H]2O)cc1/C=C/Br,,0.1 µM
Cc1cn([C@@H]2O[C@H](CO)[C@@H](O)[C@@H]2O)c(=O)[nH]c1=O,,1 µg/mL
CCn1nc(Cc2n[nH]c(=S)o2)nc1C,TK (KOS ACV),>400 µg/mL
O=c1[nH]c(=O)n([C@H]2C[C@H](O)[C@@H](CO)O2)cc1/C=C/Br,,0.005 µg/mL
CCc1cn([C@@H]2O[C@H](CO)[C@@H](O)[C@@H]2O)c(=O)[nH]c1=O,WT-34,3.2 µg/mL
CCSc1ncnc2c1ncn2[C@@H]1OC2COP(=O)(O)OC2[C@H]1O,HF,3.2–32 µg/mL